A mixed list of measured activities; the numbers were collected in NIAID ChemDB.

All rows: cytotoxicity tests; measure: CC50

a–b is a range or a potency band.

{"structure": "O=C(Cc1cnc2[nH]c3ccccc3n2c1=O)c1ccccc1", "cells": "HEF", "value": "40 µg/mL"}
{"structure": "COC(=O)N[C@@H](Cc1ccccc1Br)C(=O)N[C@@H](C)CCC[C@@H](CO)N(C(C)C)S(=O)(=O)c1ccc(N)cc1", "cells": "T lymphoid cells", "method": "microscopy", "value": ">10 µM"}
{"structure": "CCOC(=O)CCCCCOc1cccc(CN(C(=O)c2ccc(-c3cccc(-c4ccccc4)c3)cc2)C(C)C)c1", "cells": "BJ", "value": ">20 µM"}
{"structure": "CC(=O)c1cc(CC(=O)c2ccccc2)c(=O)n2c1sc1ccccc12", "cells": "HEF", "value": "40 µg/mL"}
{"structure": "Cc1cc(Nc2ncnc3ccc(-c4cccs4)cc23)ccc1N1CCOCC1", "cells": "HUH 9B", "value": ">25 µM"}
{"structure": "S=C(NCCCc1ccccc1)Nc1cccc(OCCCCCc2ccccc2)c1", "cells": "Ava5-EG(delta4AB)SEAP", "method": "MTS", "value": ">1 µM"}
{"structure": "Cc1nc(Cl)c([N+](=O)[O-])c(N2CC[N+]3(CC2)CC[N+]2(CCN(c4nc(C)nc(Cl)c4[N+](=O)[O-])CC2)CC3)n1", "cells": "GMK", "value": ">720 µg/mL"}
{"structure": "NS(=O)(=O)c1ccc(CCNc2ncnc3c2cnn3-c2ccc(Cl)cc2Cl)cc1", "cells": "HUH 9B", "value": "10 µM"}
{"structure": "COc1cc2c(cc1OC)C(CC1(C)OCCO1)=NCC2", "cells": "HepG2", "value": ">20 µM"}
{"structure": "CC[C@@H](CCC[C@@H](CO)N(CCC(C)C)S(=O)(=O)c1ccc(N)cc1)NC(=O)[C@H](Cc1ccccc1Br)NC(=O)OC", "cells": "T lymphoid cells", "method": "microscopy", "value": ">10 µM"}
{"structure": "Cc1ccc(-n2ncc3c(NCCc4ccc(S(N)(=O)=O)cc4)ncnc32)c(C)c1", "cells": "HUH 9B", "value": ">30 µM"}
{"structure": "Nc1ncnc2c1c(-c1ccco1)cn2[C@H]1O[C@H](CO)[C@@H](O)C1(F)F", "cells": "Replicon cells", "method": "XTT", "value": "40.61 µM"}
{"structure": "c1csc(-c2ccc3ncnc(Nc4ccc(N5CCOCC5)cc4)c3c2)n1", "cells": "HUH 9B", "value": ">25 µM"}
{"structure": "COC(=O)C1=C2Nc3ccccc3[C@@]23CCN2C[C@]4(C[C@@H]5C[C@]67CC(=O)O[C@H]6CCC6NC[C@@]8(c9cccc(OC)c9N(C4)[C@@]58O)[C@@H]67)[C@@H]4OCC[C@]4(C1)[C@H]23", "cells": "HL-60", "method": "absorbance", "value": "8 µM"}
{"structure": "COC(=O)NC(Cc1cccc(Cl)c1Cl)C(=O)N[C@@H](C)CCC[C@@H](CO)N(C(C)C)S(=O)(=O)c1ccc(CO)cc1", "cells": "T lymphoid cells", "method": "microscopy", "value": ">10 µM"}
{"structure": "CC(C)N(Cc1cccc(OCCCCCC(=O)OC(=O)O)c1)C(=O)c1ccc(-c2cccc(NC=O)c2)cc1", "cells": "BJ", "value": ">20 µM"}
{"structure": "CNC(=O)c1ccc2ncnc(Nc3ccc(N4CCOCC4)cc3)c2c1", "cells": "HUH 9B", "value": ">25 µM"}
{"structure": "Cc1nc(N2CCCC2)c([N+](=O)[O-])c(N2CC[N+]3(CC2)CC[N+]2(CCN(c4nc(C)nc(N5CCCC5)c4[N+](=O)[O-])CC2)CC3)n1", "cells": "K562", "value": ">281.8 µg/mL"}
{"structure": "Nc1ncnc2c1c(-c1ccsc1)cn2[C@@H]1O[C@H](CO)[C@@H](O)[C@H]1F", "cells": "Replicon cells", "method": "XTT", "value": ">44 µM"}
{"structure": "Nc1nc(=O)c2ncn([C@@H]3O[C@H](CO)[C@@H](O)[C@H]3O)c2c(=O)[nH]1", "cells": "HFF (dividing cells)", "value": ">100 µM"}
{"structure": "Cc1ccc(-n2ncc3c(Nc4ccc(F)c(Cl)c4)ncnc32)c(C)c1", "cells": "HUH 9B", "value": "22 µM"}
{"structure": "O=S1(=O)CCN(Cc2ccc(-c3ccc4ncnc(Nc5ccc(N6CCOCC6)cc5)c4c3)o2)CC1", "cells": "HUH 9B", "value": ">25 µM"}
{"structure": "CN(Cc1ncccc1/C=C/C#N)Cc1nc2ccccc2n1Cc1ccccc1", "cells": "C8166", "method": "MTT", "value": ">10 µM"}
{"structure": "Cc1c[nH]c2c1C(c1ccc(O)c(O)c1)C(C#N)=C(N)O2", "cells": "HOS", "value": "49 µM"}
{"structure": "Nc1ncnc2c1c(-c1cccs1)cn2[C@@H]1O[C@H](CO)[C@@H](O)C1(F)F", "cells": "Replicon cells", "method": "XTT", "value": "26.36 µM"}
{"structure": "O=C(CCBr)N1CC[N+]2(CC1)CC[N+]1(CCN(C(=O)CCBr)CC1)CC2", "cells": "GMK", "value": ">883.1 µg/mL"}
{"structure": "CCCN([C@H](CO)CCCC(C)NC(=O)[C@@H](NC(=O)OC)C(c1ccccc1)c1ccccc1)S(=O)(=O)c1ccc(CO)cc1", "cells": "T lymphoid cells", "method": "microscopy", "value": ">10 µM"}
{"structure": "O=[N+]([O-])c1c(N2CC[N+]3(CC2)CC[N+]2(CCNCC2)CC3)ncnc1N1CC[N+]2(CC1)CC[N+]1(CCN(c3ncnc(N4CC[N+]5(CC4)CC[N+]4(CCNCC4)CC5)c3[N+](=O)[O-])CC1)CC2", "cells": "L929", "value": ">146.1 µg/mL"}
{"structure": "CN(Cc1ncccc1CCC#N)Cc1c[nH]c2ccccc12", "cells": "C8166", "method": "MTT", "value": ">10 µM"}
{"structure": "Nc1ncnc2c1c(I)cn2[C@@H]1O[C@H](CO)[C@@H](O)[C@H]1F", "cells": "Replicon cells", "method": "XTT", "value": "10.2 µM"}
{"structure": "NC(=S)Nc1cccc(OCCCCCOc2ccc(N3CCCC3)cc2)c1", "cells": "Ava5-EG(delta4AB)SEAP", "method": "MTS", "value": ">1 µM"}
{"structure": "CN(c1ccc(N2CCOCC2)cc1)c1ncnc2ccc(I)cc12", "cells": "HUH 9B", "value": "1–10 µM"}
{"structure": "Cc1ccc(-n2ncc3c(NC(=O)Nc4cccc(C(F)(F)F)c4)ncnc32)c(C)c1", "cells": "HUH 9B", "value": "22 µM"}
{"structure": "Nc1ncnc2c1c(-c1ccco1)cn2[C@@H]1O[C@H](CO)[C@@H](O)[C@H]1F", "cells": "Replicon cells", "method": "XTT", "value": "33.46 µM"}
{"structure": "CCCCN1CCN(C(=S)Nc2cccc(OCCCCCc3ccccc3)c2)C1=S", "cells": "Ava5-EG(delta4AB)SEAP", "method": "MTS", "value": ">1 µM"}
{"structure": "CN(Cc1nc2ccccc2s1)Cc1ncccc1CCC#N", "cells": "C8166", "method": "MTT", "value": ">10 µM"}
{"structure": "CCCN([C@H](CO)CCC[C@H](CC)NC(=O)[C@@H](N)C(c1ccccc1)c1ccccc1)S(=O)(=O)c1ccc(CO)cc1", "cells": "T lymphoid cells", "method": "microscopy", "value": ">10 µM"}
{"structure": "NC(=S)Nc1cccc(OCCCCc2ccccc2)c1", "cells": "Ava5-EG(delta4AB)SEAP", "method": "MTS", "value": ">1 µM"}
{"structure": "Nc1ncnc2c1c(-c1ccccc1)cn2[C@H]1O[C@H](CO)[C@@H](O)C1(F)F", "cells": "Replicon cells", "method": "XTT", "value": ">44 µM"}
{"structure": "COc1ccc(C(O)C(Br)N=[N+]=[N-])cc1OC", "cells": "HepG2", "value": ">20 µM"}
{"structure": "CCOC(=O)c1cc(NC(=O)c2ccccc2)c(=O)n2c1[nH]c1ccccc12", "cells": "HEP-2", "value": "40 µg/mL"}
{"structure": "Nc1ncnc2c1c(-c1ccccc1)cn2[C@@H]1O[C@H](CO)[C@@H](O)C1(F)F", "cells": "Replicon cells", "method": "XTT", "value": ">44 µM"}
{"structure": "CN1CCN(c2ccnc3nc(CN(CCCCN)Cc4ncccc4-n4ccc5ccccc54)[nH]c23)CC1", "cells": "C8166", "method": "MTT", "value": ">10 µM"}
{"structure": "N#Cc1cc(CC(=O)c2ccccc2)c(=O)n2c1oc1ccccc12", "cells": "HEF", "value": "40 µg/mL"}
{"structure": "COc1ccccc1OCCCCCOc1cccc(NC(N)=S)c1", "cells": "Ava5-EG(delta4AB)SEAP", "method": "MTS", "value": ">1 µM"}
{"structure": "Cc1ccc(-n2ncc3c(Nc4cc(Cl)cc(Cl)c4)ncnc32)c(C)c1", "cells": "HUH 9B", "value": ">50 µM"}
{"structure": "CC(C)N(Cc1cccc(OCCCCCC(=O)OC(=O)O)c1)C(=O)c1ccc(-c2ccc(Cl)c(Cl)c2)cc1", "cells": "BJ", "value": ">20 µM"}
{"structure": "COC(=O)N[C@H](C(=O)N[C@H](CCC[C@@H](CO)N(CCC(C)C)S(=O)(=O)c1ccc(N)c(F)c1)C1CC1)C(c1ccccc1)c1ccccc1", "cells": "T lymphoid cells", "method": "microscopy", "value": ">10 µM"}
{"structure": "CCOC(=O)CCCCCOc1cccc(CN(C(=O)c2ccc(-c3cccc(C(C)=O)c3)cc2)C(C)C)c1", "cells": "RAJI", "value": ">20 µM"}
{"structure": "O=C(O)CC1CC(=O)Oc2c1ccc(O)c2O", "cells": "HOS", "value": "54 µM"}
{"structure": "NC(=S)Nc1ccc2c(c1)Cc1ccccc1-2", "cells": "Ava5-EG(delta4AB)SEAP", "method": "MTS", "value": ">1 µM"}
{"structure": "Cc1ccc(-n2ncc3c(Nc4ccc(Cl)c(Cl)c4)ncnc32)c(C)c1", "cells": "HUH 9B", "value": "17 µM"}
{"structure": "CC(C)CCN(c1ccc(N2CCOCC2)cc1)c1ncnc2ccc(I)cc12", "cells": "HUH 9B", "value": ">25 µM"}
{"structure": "CN1CCN(c2ccnc3nc(CN(CCCCN)Cc4ncccc4-c4ccc(C(F)(F)F)cc4)[nH]c23)CC1", "cells": "C8166", "method": "MTT", "value": ">10 µM"}
{"structure": "COC(=O)N[C@H](C(=O)N[C@H](CCC[C@@H](CO)N(C(C)C)S(=O)(=O)c1ccc(N)cc1)C1CC1)C(c1ccccc1)c1ccccc1", "cells": "T lymphoid cells", "method": "microscopy", "value": ">10 µM"}
{"structure": "Cc1ccc(-n2ncc3c(NCCc4ccc(Cl)cc4)ncnc32)c(C)c1", "cells": "HUH 9B", "value": "32 µM"}
{"structure": "CN1CCN(c2ccnc3nc(CN(C)Cc4ncccc4C4CC4)[nH]c23)CC1", "cells": "C8166", "method": "MTT", "value": ">10 µM"}
{"structure": "Nc1ncnc2c1c(-c1ccccc1)cn2[C@@H]1O[C@H](CO)[C@@H](O)[C@H]1F", "cells": "Replicon cells", "method": "XTT", "value": ">44 µM"}

A second listing of 6 rows from above:

{"structure": "CC(C)CCN(c1ccc(N2CCOCC2)cc1)c1ncnc2ccc(I)cc12", "cells": "HUH 9B", "value": ">25 µM"}
{"structure": "Nc1ncnc2c1c(-c1ccco1)cn2[C@@H]1O[C@H](CO)[C@@H](O)[C@H]1F", "cells": "Replicon cells", "method": "XTT", "value": "33.46 µM"}
{"structure": "CN(Cc1ncccc1CCC#N)Cc1c[nH]c2ccccc12", "cells": "C8166", "method": "MTT", "value": ">10 µM"}
{"structure": "CN(Cc1ncccc1/C=C/C#N)Cc1nc2ccccc2n1Cc1ccccc1", "cells": "C8166", "method": "MTT", "value": ">10 µM"}
{"structure": "Nc1ncnc2c1c(-c1ccsc1)cn2[C@@H]1O[C@H](CO)[C@@H](O)[C@H]1F", "cells": "Replicon cells", "method": "XTT", "value": ">44 µM"}
{"structure": "Nc1ncnc2c1c(-c1ccccc1)cn2[C@@H]1O[C@H](CO)[C@@H](O)[C@H]1F", "cells": "Replicon cells", "method": "XTT", "value": ">44 µM"}

CCn: concentration that lowers growth or viability of the cells by n%. Rows are shuffled and stem from different studies.